Results of unrelated studies side by side (data: NIAID ChemDB).

Shared fields: cytotoxicity tests; endpoint: CC50

Lines come from different laboratories, so protocols vary.

structure	cells	read by	result
CCOC(=O)[C@@]1(C)CC[C@]2(C)CC[C@]3(C)C(=CC(=O)[C@@H]4[C@@]5(C)CC/C(=N\OCc6cccc(F)c6)C(C)(C)[C@@H]5CC[C@]43C)[C@@H]2C1	CT26	MTT	8.69 µM
Cc1ccc(C)c(C(C)S(=O)(=O)c2cccc[n+]2[O-])c1	CEM	cell count	>100 µg/mL
CCOC(=O)CCCCCOc1cccc(CN(C(=O)c2ccc(-c3ccc4c(c3)OCCO4)cc2)C(C)C)c1	RAJI	-	>20 µM
Cc1ccc(C)c(C(C(N)=O)S(=O)(=O)c2cccc[n+]2[O-])c1	CEM	cell count	≥100 µg/mL
C=C1CN(S(C)(=O)=O)CCCN(Cc2ccccc2)CCCN(S(C)(=O)=O)C1	SupT1	trypan blue / propidium iodide	>75 µM
N=C(N)c1ccc(OCc2cccc(COc3ccc(C(=N)N)cc3)c2)cc1	3T3	absorbance	>100 µM
CO[C@H]1CC(=O)c2c(O)cccc2[C@H]1O	NCI-H187	-	2.86 µg/mL
CC(C)c1nc(Oc2ccc(S(C)(=O)=O)cc2)ccc1CN1CCC(N2C(=O)N(c3cc(C(N)=O)c(F)cc3F)C[C@H]2c2ccccc2)CC1	HOS	-	2.6 nM
CCO/N=C/c1ccc(OCCC2CCN(c3nc(C(=O)OCC)cs3)CC2)cc1	MRC-5	neutral red	>0.5 µg/mL
CCCCCCCCCCCCCCCCOCCCOP(=O)(O)CO[C@@H](CO)Cn1cnc2c(N)ncnc21	Huh7.5.1	neutral red	>100 µM
COc1cc(O)c2c(c1)[C@H](O)[C@@H](O)CC2=O	BCA	-	7.24 µg/mL
Nc1nc2c(ncn2COC(CO)CO)c(=O)[nH]1	HET	-	250 µM
Cc1ccc(C)c(CS(=O)c2ncccc2O)c1	CEM	cell count	>100 µg/mL
O=C(Nc1ccc(C(F)(F)F)cc1)c1cc(Cl)ccc1O	HepG2 cells	tetrazolium	0.36 µM
CCC(c1cc(C)ccc1C)S(=O)(=O)c1cccc[n+]1[O-]	CEM	cell count	80 µg/mL
C=C1CN(S(=O)(=O)c2ccc(C)cc2)CCCN(CC(C)CC)CCCN(S(=O)(=O)c2ccc(C)cc2)C1	SupT1	trypan blue / propidium iodide	13.1 µM
Nc1ccn(C=C2CC2(F)CO)c(=O)n1	DAUDI	-	>237 µM
C=C1CN(S(=O)(=O)c2ccccc2)CCCN(Cc2ccccc2)CCCN(S(=O)(=O)c2ccccc2)C1	SupT1	trypan blue / propidium iodide	>75 µM
Cc1ccc(C)c(CSc2c(Cl)ccc[n+]2[O-])c1	CEM	cell count	42 µg/mL
O=C(Oc1cc(Br)ccc1C(=O)Nc1ccc(C(F)(F)F)cc1)c1cnccn1	HepG2 cells	tetrazolium	8.02 µM
COP(=O)(c1cc(C)cc(CCC#N)c1)c1c(C(N)=O)[nH]c2ccc(Cl)c(F)c12	MOLT-4	MTS	16.6 µM
CC1(C)CCC2=C(O1)c1ccccc1C(=O)C2=O	293.27.2	-	0.3 µM
CCCN(CCC[C@H](NC(C)=O)C(=O)NCc1ccccc1)C(=O)NCCCl	CEM-IW	-	>100 µM
Cc1ccc(C)c(C(Cl)S(=O)(=O)c2cccc(C)[n+]2[O-])c1	CEM	cell count	≥100 µg/mL
C=C1CN(S(=O)(=O)c2ccc(N)cc2)CCCN(Cc2ccccc2)CCCN(S(=O)(=O)c2ccc(N)cc2)C1	SupT1	trypan blue / propidium iodide	49.2 µM
O=c1ccn([C@H]2CC[C@@H](CO)S2)c(=O)[nH]1	ATH8	-	>80 µM
CCO/N=C/c1ccc(OCCC2CCN(c3ccc(C)nn3)CC2)c(C)c1	MRC-5	neutral red	>0.1 µg/mL
Cc1ccc(S(=O)(=O)N2CCCN(Cc3ccccc3)CCCN(S(=O)(=O)c3ccc(C)cc3)CC(CCl)C2)cc1	SupT1	trypan blue / propidium iodide	>75 µM
Cc1ccc(C)c(CS(=O)(=O)c2c(O)ccc[n+]2[O-])c1	CEM	cell count	>100 µg/mL
Cc1ccc(S(=O)(=O)N2CCCN(Cc3ccccc3)CCCN(S(=O)(=O)c3ccc(C)cc3)CC(CO)C2)cc1	SupT1	trypan blue / propidium iodide	>75 µM
Cc1cc(S(C)(=O)=O)ccc1Oc1ccc(CN2CCC(N3C(=O)N(c4cc(C(N)=O)c(F)cc4F)C[C@H]3c3ccccc3)CC2)c(C)n1	HOS	-	5.4 nM
CCOC(=O)[C@@]1(C)CC[C@]2(C)CC[C@]3(C)C(=CC(=O)[C@@H]4[C@@]5(C)CC/C(=N\OCC6CCOCC6)C(C)(C)[C@@H]5CC[C@]43C)[C@@H]2C1	CT26	MTT	37.39 µM
CCOC(=O)CCCCCOc1cccc(CN(C(=O)c2ccc(-c3cccc(-c4ccccc4)c3)cc2)C(C)C)c1	RAJI	-	>20 µM
CCO/N=C/c1ccc(OCCC2CCN(c3ccc(OC)nn3)CC2)cc1	MRC-5	visual reading	>1 µg/mL
Nc1ccn([C@H]2C[C@@H](F)[C@@H](CO)S2)c(=O)n1	ATH8	-	>80 µM
Cc1nc(Oc2ccc(S(=O)(=O)C(C)C)cc2)ccc1CN1CCC(N2C(=O)N(c3cc(C(N)=O)c(F)cc3F)C[C@H]2c2ccccc2)CC1	HOS	-	3.6 nM
CC(=O)N[C@@H](Cc1ccccc1)C(=O)Oc1cc(Br)ccc1C(=O)Nc1ccc(C(F)(F)F)cc1	Human PBMCs	MTT	48.7 µM
CC(C)COc1cccc(-c2ccc(C(=O)N(Cc3cccc(OCCCCCC(=O)OC(=O)O)c3)C(C)C)cc2)c1	BJ	-	>20 µM
COC1=NC=C[C@@H]2O[C@@H]3SC(OC)=NC=C[C@@H]3O[C@@H]2S1	McCoy	sulforhodamine	>100 µg/mL
CC(=O)N[C@@H](CCCNC(=O)OCc1ccccc1)C(=O)O	CEM-IW	-	>100 µM
Cc1ccc(C)c(C(Sc2cccc[n+]2[O-])c2ccccc2)c1	CEM	cell count	34 µg/mL
O=C(Oc1ccc(Cl)cc1C(=O)Nc1ccc(Cl)c(Cl)c1)c1cnccn1	HepG2 cells	tetrazolium	4.75 µM
CO/N=C/c1cc(C)c(OCCCc2cc(C)no2)c(C)c1	MRC-5	visual reading	20 µg/mL
Cc1cccc(CS(=O)(=O)c2cccc[n+]2[O-])c1	CEM	cell count	23 µg/mL
Nc1ncnc2c1ncn2C[C@@H](CO)OCP(=O)(O)O	Huh7.5.1	neutral red	>100 µM
CCCNCCCC[C@H](NC(C)=O)C(=O)NCc1ccccc1	CEM-IW	-	>100 µM
Cc1cc(CCCOc2c(C)cc(/C=N/OCc3ccccc3)cc2C)on1	MRC-5	visual reading	17 µg/mL
O=C1CC[C@H](O)c2cc(O)cc(O)c21	NCI-H187	-	5.55 µg/mL
Cc1ccc(C)c(C(Cl)S(=O)(=O)c2ccccn2)c1	CEM	cell count	38 µg/mL
COC1=CC(=O)c2c(cc(OC)c(C(C)C3=C(O)c4c(cc(O)c(C(C)=O)c4O)C(=O)C3=O)c2O)C1=O	NCI-H187	-	3.72 µg/mL
CO/N=C/c1cc(C)c(OCCC2CCN(c3ccc(Cl)nn3)CC2)c(C)c1	MRC-5	visual reading	>1 µg/mL
O=S(=O)(Cc1ccc(F)cc1)c1cccc[n+]1[O-]	CEM	cell count	24 µg/mL
Cc1cn(C2C[C@H](F)[C@@H](COP(=O)(N[C@@H](C)C(=O)OC(C)C)Oc3ccccc3)O2)c(=O)[nH]c1=O	L1210	cell count	>250 µM
O=C(Oc1cc(Cl)ccc1C(=O)Nc1ccc(C(F)(F)F)cc1)c1ccccc1	HepG2 cells	tetrazolium	2.4 µM
C=C1CN(S(=O)(=O)c2ccc(COCCCC)cc2)CCCN(Cc2ccccc2)CCCN(S(=O)(=O)c2ccc(COCCCC)cc2)C1	SupT1	trypan blue / propidium iodide	>75 µM
CCOC(=O)[C@@]1(C)CC[C@]2(C)CC[C@]3(C)C(=CC(=O)[C@@H]4[C@@]5(C)CC/C(=N\OCc6ccccc6C#N)C(C)(C)[C@@H]5CC[C@]43C)[C@@H]2C1	K562	MTT	55.24 µM
O=[N+]([O-])c1cc(CS(=O)(=O)c2cccc[n+]2[O-])cc([N+](=O)[O-])c1	CEM	cell count	4.4 µg/mL
C=C1CN(S(=O)(=O)c2ccc(Br)cc2)CCCN(Cc2ccccc2)CCCN(S(=O)(=O)c2ccc(Br)cc2)C1	SupT1	trypan blue / propidium iodide	>75 µM
COc1cc(CS(=O)(=O)c2cccc[n+]2[O-])cc(OC)c1OC	CEM	cell count	51 µg/mL
CCCCCCCCCCCCCCCCOCCCOP(=O)(O)CO[C@H](CO)Cn1cnc2c(N)ncnc21	Huh7.5.1	neutral red	>100 µM
Cc1ccc(C)c(C(Cl)S(=O)(=O)c2c(C)ccc[n+]2[O-])c1	CEM	cell count	>100 µg/mL
CCO/N=C\c1ccc(OCCC2CCN(c3ccc(Cl)nn3)CC2)cc1	MRC-5	visual reading	>0.1 µg/mL
COc1ccc(CS(=O)(=O)c2cc(C(C)(C)C)cc[n+]2[O-])cc1	CEM	cell count	38 µg/mL
CCOC(=O)CCCCCOc1cccc(CN(C(=O)c2ccc(-c3cccc(O)c3)cc2)C(C)C)c1	HEK 293	-	>20 µM
Nc1ccn([C@H]2CC[C@@H](CO)S2)c(=O)n1	ATH8	-	>80 µM
COc1ccc(CS(=O)(=O)c2cccc[n+]2[O-])cc1	CEM	cell count	31 µg/mL

The last 6 rows once more:

structure	cells	read by	result
Cc1ccc(C)c(C(Cl)S(=O)(=O)c2c(C)ccc[n+]2[O-])c1	CEM	cell count	>100 µg/mL
CCO/N=C\c1ccc(OCCC2CCN(c3ccc(Cl)nn3)CC2)cc1	MRC-5	visual reading	>0.1 µg/mL
COc1ccc(CS(=O)(=O)c2cc(C(C)(C)C)cc[n+]2[O-])cc1	CEM	cell count	38 µg/mL
CCOC(=O)CCCCCOc1cccc(CN(C(=O)c2ccc(-c3cccc(O)c3)cc2)C(C)C)c1	HEK 293	-	>20 µM
Nc1ccn([C@H]2CC[C@@H](CO)S2)c(=O)n1	ATH8	-	>80 µM
COc1ccc(CS(=O)(=O)c2cccc[n+]2[O-])cc1	CEM	cell count	31 µg/mL

An empty or dashed field is not shown. CCn is the concentration with n% toxicity to the cells.